Assay [1] addresses T1, β-lactamase TEM-1 (Escherichia coli, UniProt P62593). In words: UV absorption and fluorescence spectral analysis of enzymatic hydrolysis. Conditions: TEM-1 100 nM; for UV absorption spectra following enzymatic hydrolysis (probes) / UV absorption spectra following enzymatic hydrolysis (photosensitizers): PBS pH 7.4, 37°C, 15 minutes; for fluorescence after enzymatic hydrolysis (probes) / fluorescence after enzymatic hydrolysis (photosensitizers): excitation 680 nm. The protocol: Experimental conditions: The probes BIN-3 and BIN-2 were prepared as 5 µM working solutions in PBS (pH = 7.4). The final concentration of β-lactamase TEM-1 was 100 nM, and the final concentration of nucleophile β-mercaptoethanol was 10 mM. The total reaction volume was 100 µL, and the reaction mixture was incubated at 37°C for 15 minutes. The photosensitizers BIN-3I and BIN-2I were prepared as 10 µM working solutions in PBS (pH = 7.4). The final concentration of β-lactamase TEM-1 was 100 nM, and the final concentration of nucleophile β-mercaptoethanol was 100 µM. The total reaction volume was 100 µL, and the reaction mixture was incubated at 37°C for 15 minutes. Subsequently, all UV absorption spectra were measured at room temperature using a Shimadzu UV-Vis spectrophotometer over a wavelength range of 400 to 800 nm. All fluorescence spectra were measured using a fluorescence spectrometer with an excitation wavelength of 680 nm and an emission scanning range of 690 to 850 nm.

The chains behind the UniProt entries cited, without tags or fusion partners. Residues count along the entry.
UniProt P62593, 24-286 limits assumed: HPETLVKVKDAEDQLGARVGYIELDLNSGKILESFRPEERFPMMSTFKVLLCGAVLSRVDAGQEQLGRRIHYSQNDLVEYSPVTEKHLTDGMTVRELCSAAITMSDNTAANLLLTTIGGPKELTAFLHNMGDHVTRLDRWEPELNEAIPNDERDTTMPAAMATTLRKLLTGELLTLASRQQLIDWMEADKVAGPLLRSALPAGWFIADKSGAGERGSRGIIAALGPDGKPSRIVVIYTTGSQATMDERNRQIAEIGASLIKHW

In assay [2] the target is T1, β-lactamase TEM-1. Briefly: Enzyme selectivity assay (fluorescence intensity). The following applies: 5 µM; for fluorescence response to β-lactamase TEM-1: 37°C, 30 minutes, 680/720 nm; for fluorescence response to other enzymes and proteins: lysozyme, β-glucosidase, lipase, bovine serum albumin, glutathione, lysine, cysteine, tryptophan. As to the method:
Experimental conditions: The probes were prepared as 5 µM working solutions in PBS (pH = 7.4), followed by addition of various enzymes and proteins. The total reaction volume was 100 µL, and the reaction mixture was incubated at 37°C for 30 minutes. Subsequently, the fluorescence intensity of all groups was measured using a microplate reader, with excitation and emission wavelengths set at 680 nm and 720 nm, respectively.

Assay [3] relates to mixed bacteria populations expressing β-lactamase and mCherry fluorescent protein. In words: Selective imaging of mixed bacterial populations. The following applies: 37°C, 2 hours; mCherry and Cy5.5 channels. As to the method: For selective imaging experiments involving mixed bacteria populations expressing β-lactamase and mCherry fluorescent protein, the procedures for bacterial culture were identical to those described above, except that prior to imaging, the two bacterial populations were mixed thoroughly and incubated with the probe at 37°C for 2 hours. Subsequently, the bacteria were spotted onto a glass slide and imaged under a fluorescence microscope using both the mCherry and Cy5.5 channels, with the mCherry fluorescence signal pseudo-colored green and the Cy5.5 fluorescence signal pseudo-colored red.

The next assay has as its system E. coli expressing bla. Briefly: Real-time in vivo imaging of bacterial infection. Conditions: for Relative fluorescence intensity at different time points: mice, 5 × 10^8 CFU right hind limb, probe 1 µmol/kg tail vein. The protocol: Experimental conditions: In vivo imaging experiments were conducted by injecting the probes into murine infection models followed by real-time fluorescence imaging using an IVIS system. Female BALB/c mice aged 4 to 6 weeks were obtained from the Shanghai Laboratory Animal Research Center. The mice were housed at 25°C with free access to food and water. For real-time in vivo imaging, the mice were divided into groups with five mice per group: the primary probe BIN-3, BIN-3 combined with an inhibitor, and the control probe BIN-2. The probe concentration was 1 µmol/kg, and the concentration of the inhibitor avibactam was 100 mM. E. coli expressing bla (5 × 10^8 CFU) was injected into the right hind limb of the mice to establish a mouse infection model. One hour after bacterial infection, BIN-3 or BIN-2 (1 µmol/kg) was administered via tail vein injection. For the inhibitor group, avibactam (100 mM) was incubated with the bacteria at 37°C for 2 hours and injected into the right hind limb of the mice, followed by tail vein injection of BIN-3. Whole-body fluorescence images were acquired at 1, 2, 3, 4, 6, 8, and 10 hours post-injection using an IVIS Lumina XRMS Series III imaging system. Fluorescence intensity was quantified using region of interest (ROI) analysis in Living Image software.

Assay [4] concerns Enterobacter cloacae producing β-lactamase. Briefly: Evaluation of probe enrichment in bacteria. As to the method:
Experimental conditions: The bacterial experiment was conducted in a biosafety cabinet. Enterobacter cloacae producing β-lactamase was first revived on LB agar plates. A single colony was then inoculated into 1 mL of culture medium and incubated at 37°C with shaking. The bacteria were collected into a sterile EP tube, centrifuged at 5,000 rpm, washed twice with PBS, and resuspended in PBS. A bacterial suspension at a concentration of 1 × 10^9 CFU was incubated with the primary probe BIN-3 and the control probe BIN-2 at 37°C for 2 hours. Subsequently, the culture medium was collected to measure the fluorescence intensity. The bacteria were resuspended in lysis buffer, and the fluorescence intensity of the bacterial lysate was measured to calculate the probe concentration in the bacteria.

Assay [5] deals with Bacteria producing or not producing β-lactamase. In words: Fluorescence imaging of bacteria with and without washing. The protocol:
Experimental conditions: The bacterial experiment was conducted in a biosafety cabinet. Bacteria producing or not producing β-lactamase were first revived on LB agar plates. A single colony was then inoculated into 1 mL of culture medium and incubated at 37°C with shaking for 3 to 5 hours until reaching the logarithmic growth phase. The bacteria were collected into a sterile EP tube, centrifuged at 5,000 rpm, washed twice with PBS, and resuspended in PBS. A bacterial suspension at a concentration of 1 × 10^7 CFU was incubated with the primary probe BIN-3 and the control probe BIN-2 at 37°C for 2 hours. An additional "probe-washing" group was included. After incubation, the bacterial suspension was washed twice with PBS. Subsequently, the bacteria were spotted onto a glass slide and imaged under a fluorescence microscope using the Cy5.5 channel, with the Cy5.5 fluorescence signal pseudo-colored red.

Assay [6] deals with T1, β-lactamase TEM-1. Briefly: SDS-PAGE and dual-color near-infrared fluorescence scanning (protein labeling). Conditions: 10 µM, TEM-1 5 µM, 37°C, 2 hours. The protocol: Experimental conditions: A 12% SDS-PAGE resolving gel and a 5% stacking gel were prepared. The probes and photosensitizers were prepared as 10 µM working solutions in PBS (pH = 7.4) and incubated with different proteins at 37°C for 2 hours. The concentrations of β-lactamase TEM-1 and BSA were 5 µM and 10 µM, respectively. For the inhibitor group, the inhibitor avibactam (1 mM) was pre-incubated with TEM-1 for 30 minutes before co-incubation with the probe. Subsequently, SDS-PAGE loading buffer was added to the samples and mixed thoroughly. Each sample (15 µL) was loaded onto the gel and subjected to electrophoresis. Upon completion, fluorescent bands were obtained using dual-color near-infrared fluorescence scanning. Finally, the gel was stained with Coomassie Brilliant Blue and photographed using a gel imaging system.

For assay [7], the target named is T1, β-lactamase TEM-1. Briefly: HPLC analysis of enzymatic hydrolysis. Conditions: TEM-1 100 nM, 37°C, 15 minutes, 660 nm. The protocol:
Experimental conditions: The probes were prepared as 5 µM working solutions in PBS (pH = 7.4), while the photosensitizers were prepared as 10 µM working solutions in PBS (pH = 7.4). The final concentration of β-lactamase TEM-1 was 100 nM, and the final concentration of nucleophile β-mercaptoethanol was 10 mM. The total reaction volume was 100 µL, and the reaction mixture was incubated at 37°C for 15 minutes. Hydrolysis was monitored by HPLC at a detection wavelength of 660 nm.

Structures were worked out from names or drawings and are uncertain.

The source of these data is EP4825863A1, “DESIGN, PREPARATION AND APPLICATION OF TARGETED ACTIVATION ENRICHMENT TYPE NEAR-INFRARED PROBE AND PHOTOSENSITIZER” (dated 2026).

Turning to `CCC[N+]1=C(/C=C/C2=C3Oc4cc(OCC5=C(C(=O)O)N6C(=O)[C@@H](NC(=O)CCc7cn(CC[N+](C)(C)CCCS(=O)(=O)O)nn7)[C@H]6SC5)ccc4C=C3CCC2)C(C)(C)c2ccccc21`, the “UV absorption spectra following enzymatic hydrolysis (probes)” value on β-lactamase TEM-1 [1] (5 µM) was “a red-shift in the absorption spectra following enzymatic hydrolysis”. Moreover, the “fluorescence after enzymatic hydrolysis (probes)” value on β-lactamase TEM-1 [1] (5 µM) is listed as “fluorescence was activated after enzymatic hydrolysis”. In addition, the “fluorescence response to β-lactamase TEM-1” value at β-lactamase TEM-1 [2] is “specifically responded to β-lactamase TEM-1”. Besides, the “fluorescence response to other enzymes and proteins” value at β-lactamase TEM-1 [2] was “no response to other enzymes and proteins”. Further, the “labeling in mixed-bacteria imaging” value in assay [3] is “generated fluorescence signals not only on the drug-resistant bacteria but also on the mCherry-expressing bacteria”. The “Relative fluorescence intensity at different time points” value in the assay with E. coli expressing bla (0 (h)) is listed as 0 × 10^8; with E. coli expressing bla (1 (h)), 5.97 ± 0.41 × 10^8; in the assay on E. coli expressing bla (2 (h)) it was 3.99 ± 0.18 × 10^8; in the assay with E. coli expressing bla (3 (h)), 2.88 ± 0.34 × 10^8; in the assay with E. coli expressing bla (4 (h)) it was 2.33 ± 0.48 × 10^8; in the assay with E. coli expressing bla (5 (h)) it was 1.66 ± 0.44 × 10^8. In addition, the “Relative fluorescence intensity at different time points” value was 1.1 ± 0.28 × 10^8 in the assay on E. coli expressing bla (6 (h)); 1.12 ± 0.28 × 10^8 in the assay on E. coli expressing bla (7 (h)); 1.05 ± 0.2 × 10^8 with E. coli expressing bla (8 (h)); 1 ± 0.54 × 10^8 in the assay with E. coli expressing bla (9 (h)); 1 ± 0.19 × 10^8 in the assay on E. coli expressing bla (10 (h)). Also, the “signal-to-background ratio (SBR)” value in the assay with E. coli expressing bla (5 hours post-injection) is on record as “approximately 1”. For the same compound, the “coloration at the infection site after skin removal” value in the assay on E. coli expressing bla (10 hours after probe injection) was “no such blue-green coloration was observed”. Moreover, the “fluorescence intensity of infected right hind limb in isolated organs” value in the assay with E. coli expressing bla (ex vivo, 10 hours after probe injection) is “significantly weaker signals than the BIN-3 group”. In assay [4], the “visible coloration of bacteria after incubation and PBS washing” value was “no visible coloration”. For the same compound, the “concentration in the bacteria, fold lower than that of BIN-3” value in assay [4] (1 × 10^9 CFU, 37°C, 2 hours) is reported as 150 fold. Besides, the “fluorescence on bacteria after normal incubation” value in assay [5] (1 × 10^7 CFU, 37°C, 2 hours) is reported as “red fluorescence was observed on the bacteria”. Further, the “fluorescence on bacteria after washing with PBS” value in assay [5] (washed twice with PBS) is “almost no fluorescence”. Besides, the “fluorescent bands after incubation with TEM-1” value (from here on “fluorescent bands”) at β-lactamase TEM-1 [6] was “no fluorescence signals were observed”. The “hydrolysis by TEM-1 monitored by HPLC (probes)” value on β-lactamase TEM-1 [7] (5 µM) was “can also be hydrolyzed by β-lactamase TEM-1”.
With `CCC[N+]1=C(/C=C/C2=C3Oc4cc(OCC5=C(C(=O)O)N6C(=O)[C@@H](NC(=O)CCc7cn(CC[N+](C)(C)CCCS(=O)(=O)O)nn7)[C@H]6SC5)c(COC(=O)NCC)cc4C=C3CCC2)C(C)(C)c2ccccc21`, at β-lactamase TEM-1 [1] (5 µM), the “UV absorption spectra following enzymatic hydrolysis (probes)” value is given as “a red-shift in the absorption spectra following enzymatic hydrolysis” and the “fluorescence after enzymatic hydrolysis (probes)” value is “fluorescence was activated after enzymatic hydrolysis”. The “fluorescence after enzymatic hydrolysis followed by nucleophile attack (probe)” value on β-lactamase TEM-1 [1] (5 µM, β-mercaptoethanol 10 mM) was “further enhanced after enzymatic hydrolysis followed by nucleophile attack”. In addition, on β-lactamase TEM-1 [2], the “fluorescence response to β-lactamase TEM-1” value was “specifically responded to β-lactamase TEM-1”; the “fluorescence response to other enzymes and proteins” value is “no response to other enzymes and proteins”.
As for `C[N+]1=C(/C=C/C2=C3Oc4cc(OCC5=C(C(=O)O)N6C(=O)[C@@H](NC(=O)CCc7cn(C(CC(=O)O)C(=O)O)nn7)[C@H]6SC5)ccc4C=C3CCC2)C(C)(C)c2cc(I)ccc21` (some centres unmarked), on β-lactamase TEM-1 [1] (10 µM), the “UV absorption spectra following enzymatic hydrolysis (photosensitizers)” value is “changes in the absorption spectra following enzymatic hydrolysis” and the “fluorescence after enzymatic hydrolysis (photosensitizers)” value is “fluorescence was activated after enzymatic hydrolysis”. Moreover, the “fluorescent bands” value on β-lactamase TEM-1 [6] is listed as “no fluorescence signals were observed”.
As for `C[N+]1=C(/C=C/C2=C3Oc4cc(OCC5=C(C(=O)O)N6C(=O)[C@@H](NC(=O)CCc7cn(C(CC(=O)O)C(=O)O)nn7)[C@H]6SC5)c(COC(=O)NCc5cn(C(CC(=O)O)C(=O)O)nn5)cc4C=C3CCC2)C(C)(C)c2cc(I)ccc21` (some centres unmarked), on β-lactamase TEM-1 [1] (10 µM), the “UV absorption spectra following enzymatic hydrolysis (photosensitizers)” value is “changes in the absorption spectra following enzymatic hydrolysis” and the “fluorescence after enzymatic hydrolysis (photosensitizers)” value was “fluorescence was activated after enzymatic hydrolysis”. Also, the “fluorescence after enzymatic hydrolysis followed by nucleophile attack (photosensitizer)” value on β-lactamase TEM-1 [1] (10 µM, β-mercaptoethanol 100 µM) is “further enhanced after enzymatic hydrolysis followed by nucleophile attack”. On β-lactamase TEM-1 [6], the “fluorescent bands” value is “red fluorescent bands were observed”. In addition, the “hydrolysis by TEM-1 monitored by HPLC (photosensitizers)” value on β-lactamase TEM-1 [7] (10 µM) is reported as “a series of irregular HPLC peaks”.
